{"source": "patent US9993529B2", "about": "“Stable formulations of a hyaluronan-degrading enzyme” (Halozyme, Inc., priority 2011, dated 2018)", "test_system": "Aspergillus niger, Pseudomonas aeruginosa, E. coli, Staphylococcus aureus and Candida albicans", "experiment": "Antimicrobial effectiveness test, USP/EPA/EPB criteria", "conditions": "Example 19; component concentration (50-100 mM)"}
{"smiles": "CSCC[C@H](N)C(=O)O", "note": "[methionine]", "values": [{"measurement": "Effect on antimicrobial effectiveness", "result": "Neutral"}]}
